A mixed list of measured activities; the numbers were collected in NIAID ChemDB.

Shared fields: growth or infection tests; organism: HIV-1; cells: MOLT-4; measure: EC50

Conditions beyond the fields shown may differ between rows. An empty or dashed field is not shown. ECn: concentration that inhibits the pathogen or its effect by n%.

compound,strain or isolate,method,result
CCCN(C)C(=O)Oc1nsnc1-c1c(Cl)cccc1Cl,IIIB,cytopathic effect,0.007 µM
CC(=O)c1ccc(C)cc1NC(C(N)=O)c1c(Cl)cccc1Cl,IIIB,cytopathic effect / MTT,0.028 µM
O=S(=O)(O)c1cc(NS(=O)(=O)c2ccc(-c3ccc(S(=O)(=O)Nc4cc(S(=O)(=O)O)c5cccc(S(=O)(=O)O)c5c4)cc3)cc2)cc2c(S(=O)(=O)O)cccc12,IIIB,syncytia,37 µM
CC(C)(C)[Si](C)(C)OC[C@H]1O[C@@H](n2ccc(=O)[nH]c2=O)[C@H](O[Si](C)(C)C(C)(C)C)C12OS(=O)(=O)C=C2N,IIIB,syncytia,0.174 µM
C1CNCCNCCCNCCNC1,RF,syncytia,>2500 µM
CN=C1CN=C(c2ccc[nH]2)c2cc(Cl)ccc2N1,IIIB,cytopathic effect / MTT,0.053 µg/mL
C1CNCCNCC(CCOCCOCCC2CNCCNCCCNCCNC2)CNCCNC1,SF2,syncytia,115 µM
Cc1cn([C@@H]2O[C@H](CO)C3(OS(=O)(=O)C=C3N)[C@H]2O)c(=O)[nH]c1=O,IIIB,syncytia,>55 µM
CCOCn1c(Cc2cc(C)cc(C)c2)c(CC)c(=O)[nH]c1=O,IIIB,cytopathic effect / MTT,0.0012 µM
CCCCCC/C=C\C/C=C\CCCCCCC(=O)O[C@H](COC(=O)CCCCCCCCCCCCCCC)COP(=O)([O-])OCC[N+](C)(C)C,,p24 / ELISA,>50 µM
O=S(=O)(O)c1cc(O)c2c(NS(=O)(=O)c3ccc(-c4ccc(S(=O)(=O)Nc5cc(S(=O)(=O)O)cc6cc(S(=O)(=O)O)cc(O)c56)cc4)cc3)cc(S(=O)(=O)O)cc2c1,IIIB,syncytia,35 µM
CCOCn1c(Sc2cc(C)cc(C)c2)c(CC)c(=O)[nH]c1=O,IIIB,cytopathic effect / MTT,0.0034 µM
CCCCCC/C=C\C/C=C\CCCCCCC(=O)O[C@H](COC(=O)CCCCCCCCCCCCCCC)COP(=O)([O-])OCC[NH3+],,p24 / ELISA,20 µM
OC[C@H]1NC[C@H](O)[C@@H](O)[C@@H]1O,IIIB,cell fusion,50 µg/mL
Cc1cn([C@@H]2O[C@H](CO[Si](C)(C)C(C)(C)C)C3(OS(=O)(=O)C=C3N)[C@H]2O[Si](C)(C)C(C)(C)C)c(=O)n(C)c1=O,IIIB,cytopathic effect / trypan blue,0.017 µM

The last 2 rows once more:

compound	strain or isolate	method	result
OC[C@H]1NC[C@H](O)[C@@H](O)[C@@H]1O	IIIB	cell fusion	50 µg/mL
Cc1cn([C@@H]2O[C@H](CO[Si](C)(C)C(C)(C)C)C3(OS(=O)(=O)C=C3N)[C@H]2O[Si](C)(C)C(C)(C)C)c(=O)n(C)c1=O	IIIB	cytopathic effect / trypan blue	0.017 µM